Literature values in PMC8472716.

Target: TLR4 (Homo sapiens) (UniProt O00206)

Q: Which Kd does the source give for “SARS-CoV-2 spike trimer (from UniProt P0DTC2)” here?
A: The Kd was 300 nM.
